Legend:
[1] = test system: HIV-1 replication in H9 lymphocyte cells; conditions: Fujioka et al. 1994; cited from earlier work
HIV-1 (IIIB isolate) = assay type: cell-based; conditions: ratio of cytotoxicity IC50 to anti-HIV EC50
Procedure: The biological evaluation of HIV-1 inhibition was carried out as follows according to established protocols (Montefiori et al., Clin Microbiol. 26:231-235 (1988)). The human T-cell line, MT-2, was maintained in continuous culture with complete medium (RPMI 1640 with 10% fetal calf serum supplemented with L-glutamine at 5% CO2 and 37° C.). Test samples were first dissolved in dimethyl sulfoxide at a concentration of 10 mg/ml to generate master stocks with dilutions made into tissue culture media to generate working stocks. The following drug concentrations were routinely used for screening: 100, 20, 4 and 0.8 μg/ml. For agents found to be active, additional dilutions were prepared for subsequent testing so that an accurate EC50 value (defined below) could be determined. Test samples were prepared and to each sample well was added 90 μl of media containing MT-2 cells at 3×10^5 cells/ml and 45 μl of virus inoculum (HIV-1 IIIIB isolate) at a concentration necessary to result in 80% killing of the cell targets at 5 days post-infection (PI). Control wells containing virus and cells only (no drug) and cells only (no virus or drug) were also prepared. A second set of samples were prepared identical to the first and were added to cells under identical conditions without virus (mock infection) for toxicity determinations (IC50 defined below). In addition, AZT was also assayed during each experiment as a positive drug control. On day 5 PI, virus-induced cell killing was determined by measuring cell viability using the XTT method. Compound toxicity was determined by XTT using the mock-infected samples. If a test sample had suppressive capability and was not toxic, its effects were reported in the following terms: IC50, the concentration of test sample which was toxic to 50% of the mock-infected MT-2 cells; EC50, the concentration of the test sample that was able to suppress HIV replication by 50%; and the Therapeutic index (TI) the ratio of the IC50 to EC50.
Compounds of the present invention were assayed for anti-HIV activity according to the following assay procedures. The T cell line, H9, and the promonocytic cell line, U937, were maintained separately in continuous culture with complete medium (RPMI 1640 with 10% fetal calf serum) at 5% CO2 and 37° C. The cell lines were used in experiments only when in the logarithmic phase of growth, whereas uninfected peripheral blood mononuclear cells (PBMCs) were first stimulated with PHA (1 μg/mL) for three days. All cell targets were incubated with HIV-1 (IIIB isolate, 1×10^6 TCID50/mL) for one hour at 37° C. and 5% CO2. The cell lines and PBMCs were washed thoroughly to remove unadsorbed virions and resuspended at 4×10^5 cells/mL in complete medium or complete medium with 10% v/v interleukin 2 (IL-2), respectively. 100 μL aliquots were placed into wells of 96-well tissue culture plates containing an equal volume of test compounds (diluted in the appropriate culture medium). The toxicity of each compound was assessed by determining the number of compound-exposed uninfected cells that remained after five days at 37° C. and 5% CO2. A p24 antigen ELISA assay was used to determine the level of virus released in the medium of the HIV-infected cultures. […] The cutoff for the p24 ELISA assay was 12.5 pg/mL. p24 in the culture medium was quantitated against a standard curve containing known amounts of p24. The effective (EC50) and inhibitory (IC50) concentrations for anti-HIV activity and cytotoxicity, respectively, were determined.

| SMILES | T.I. value [1] | Therapeutic Index (=IC50/EC50) (HIV-1 (IIIB isolate)) |
| --- | --- | --- |
| CC(C)[C@@H]1CC[C@]2(C(=O)O)CC[C@]3(C)C(CCC4[C@@]5(C)CC[C@H](O)C(C)(C)C5CC[C@]43C)C12 (some centres unmarked) [dihydrobetulinic acid] | 14 | – |
| C=C(C)[C@@H]1CC[C@]2(CO)CC[C@]3(C)[C@H](CC[C@@H]4[C@@]5(C)CC[C@H](OC(=O)CCCC(=O)OCC)C(C)(C)[C@@H]5CC[C@]43C)[C@@H]12 [Compound 18, 3-O-glutaryl betulin ethyl ester] | – | 55340 |
| C=C(C)[C@@H]1CC[C@]2(CO)CC[C@]3(C)[C@H](CC[C@@H]4[C@@]5(C)CC[C@H](OC(=O)CCCC(=O)O)C(C)(C)[C@@H]5CC[C@]43C)[C@@H]12 [Compound 10, 3-O-glutaryl betulin] | – | 670 |
| C=C(C)[C@@H]1CC[C@]2(CO)CC[C@]3(C)[C@H](CC[C@@H]4[C@@]5(C)CC[C@H](OC(=O)COCC(=O)O)C(C)(C)[C@@H]5CC[C@]43C)[C@@H]12 [Compound 12] | – | >1819 |
| CC(=O)[C@@H]1CC[C@]2(C(=O)O)CC[C@]3(C)[C@H](CC[C@@H]4[C@@]5(C)CC[C@H](O)C(C)(C)[C@@H]5CC[C@]43C)[C@@H]12 [platanic acid] | 14 | – |
| C=C(C)[C@@H]1CC[C@]2(C(=O)O)CC[C@]3(C)[C@H](CC[C@@H]4[C@@]5(C)CC[C@H](O)C(C)(C)[C@@H]5CC[C@]43C)[C@@H]12 [Betulinic acid, betulinic acid] | 9.3 | – |
| C=C(C)[C@@H]1CC[C@]2(CO)CC[C@]3(C)[C@H](CC[C@@H]4[C@@]5(C)CC[C@H](OC(=O)CC(C)(C)CC(=O)O)C(C)(C)[C@@H]5CC[C@]43C)[C@@H]12 [Compound 8] | – | 6568 |
| C=C(C)[C@@H]1CC[C@]2(CO)CC[C@]3(C)[C@H](CC[C@@H]4[C@@]5(C)CC[C@H](OC(=O)CC(C)(C)C(=O)O)C(C)(C)[C@@H]5CC[C@]43C)[C@@H]12 [Compound 6] | – | 5975 |

— patent US7365221B2, “Monoacylated betulin and dihydrobetulin derivatives, preparation thereof and use thereof” (priority 2002, dated 2008)
